# Test results as given in PubChem BioAssay AID1159524 (National Center for Advancing Translational Sciences (NCATS), 2015).
# This is a selection; strong and weak results do not stand in their true shares. Inconclusive results are not listed. Where a call stands in place of a potency, no number is given. Activity calls are given as the source filed them. Calls follow the shape of the full dose curve; tested in HEK293T cells.
# Assay: High Throughput Screening for Foot and Mouth Disease Virus Antivirals; also: read-out not given here; nearly all actives have a fitted effect of over 45% in size
# Conditions: FMDV antiviral cell-based qHTS; series mostly up to 57.9 µM
# Potency is read from the fitted curve at half-maximal effect.
row,SMILES,Potency
1,Nc1cccc([As](=O)(O)c2ccccc2)c1,inactive
2,CN1CCCCC1COC(=O)C1(O)c2ccccc2CCc2ccccc21 (configuration not stated),inactive
3,O=P1(Nc2ncccn2)COc2ccccc2OC1,inactive
4,CCCC1OP(=O)(Nc2ccccc2)OCC1CC (configuration not stated),inactive
5,O=C(/C=C/c1ccccc1)OC1CN2CCC1CC2 (configuration not stated),inactive
6,CC1=C2N=C(C=C3N=C(C(C)=C4[N-][C@@](C)([C@@H]5N=C1[C@](C)(CCC(=O)NC[C@@H](C)OP(=O)([O-])O[C@H]1[C@@H](O)[C@@H](n6cnc7cc(C)c(C)cc76)O[C@@H]1CO)[C@H]5CC(N)=O)[C@@](C)(CC(N)=O)[C@@H]4CCC(N)=O)[C@@](C)(CC(N)=O)[C@@H]3CCC(N)=O)C(C)(C)[C@@H]2CCC(N)=O.[C-]#N.[Co+3],active: 35.5 µM
7,CN(C)C1(CNC(=O)c2ccc(S(C)(=O)=O)cc2)CCCCC1,inactive
8,COc1cc(C2NCCC3(OCCO3)C2(C)C)cc(OC)c1OC.O=[N+]([O-])c1cc([N+](=O)[O-])c(O)c([N+](=O)[O-])c1 (configuration not stated),inactive
9,Cc1ccc(C(=O)OC2CN3CCC2CC3)cc1 (configuration not stated),inactive
10,Cc1cc(SC(NC=O)C(Cl)(Cl)Cl)ncn1 (configuration not stated),inactive
11,O=P(Nc1ccccn1)(c1cccc2ccccc12)c1cccc2ccccc12,inactive
12,CCOC(=O)Nc1cccc([As](=O)(O)O)c1,inactive
13,Cc1cc(SC(NC(=O)c2ccccc2)C(Cl)(Cl)Cl)nc(C(C)C)n1 (configuration not stated),inactive
14,CCCCOc1ccc(C(=O)NCC2(N3CCCCC3)CCCCC2)cc1OC,inactive
15,COP(=O)(OC)N1CC1c1ccccc1 (configuration not stated),inactive
16,CC1CCNP(=O)(N(CCCl)CCCl)O1 (configuration not stated),inactive
17,O=C(O)C(=O)c1ccc(N(CCCl)CCCl)cc1.c1ccc(Nc2ccccc2)cc1,inactive
18,CCOC(=O)Nc1ccc([As](=O)(O)O)c(O)c1,inactive
19,CCOC(=O)c1ccc(NC(=O)C(C)(CCl)SC)cc1 (configuration not stated),inactive
20,O=C(OC1CN2CCC1CC2)c1cccc([N+](=O)[O-])c1 (configuration not stated),inactive
21,O=C(COc1ccccc1)OC1CN2CCC1CC2 (configuration not stated),inactive
22,COC(=O)C1(C)COP(=O)(N2CCCC2)OC1 (configuration not stated),inactive
23,COc1ccc(N/C(=N/P(=O)(N2CCOCC2)N2CCOCC2)N2CCOCC2)cc1,inactive
24,O=[N+]([O-])c1cc(Oc2ccc([N+](=O)[O-])cc2C(F)(F)F)cc([N+](=O)[O-])c1,inactive

row,SMILES,Potency
1,COc1cc(I)ccc1[As](=O)(O)O,inactive
2,COc1ccc2nc(NP(=O)(c3ccccc3)c3ccccc3)sc2c1,inactive
3,O=P1(N(CCCl)CCCl)Nc2ccccc2N1,inactive
4,O=P1(N(CCCl)CCCl)OCCCN1CCCl (configuration not stated),inactive
5,CCN(CC)CCCOC(=O)C(O)(c1ccccc1)c1ccccc1,inactive
6,Cc1cc(=O)[nH]c(N[N+](=O)[O-])n1,inactive
7,O=C(OC1CN2CCC1CC2)C12CC3CC(CC(C3)C1)C2 (configuration not stated),inactive
8,Cc1c2c(nc3ccccc13)SC(C(Cl)Cl)C2 (configuration not stated),inactive
9,O=[N+]([O-])c1cc([N+](=O)[O-])c(-c2ccn[nH]2)s1,inactive
10,CC(C)NC(=O)NP(=O)(Oc1ccccc1)Oc1ccccc1,inactive
11,O=C(OC1CN2CCC1CC2)c1cccc2[nH]cnc12 (configuration not stated),inactive
12,CCN(CC)C(=S)SC(NC=O)C(Cl)(Cl)Cl (configuration not stated),inactive
13,COC(=O)C1(C)COP(=O)(N2CCCCCC2)OC1 (configuration not stated),inactive
14,CC(C)c1ccc(OP(=O)(Nc2ccccn2)Oc2ccccc2F)cc1 (configuration not stated),inactive
15,ClCCSc1nnc(-c2cccnc2)o1,inactive
16,Cc1ccc2nc3c(c(C)c2c1)CC(C(Cl)Cl)S3 (configuration not stated),inactive
17,Cc1ccc(OP(=O)(Nc2ccc([N+](=O)[O-])cn2)Oc2ccc(C)cc2)cc1,inactive
18,[N-]=[N+]=NC1CCCCC1NC(=O)c1cc([N+](=O)[O-])cc([N+](=O)[O-])c1 (configuration not stated),inactive
19,O=[N+]([O-])c1ccc(-c2cc([N+](=O)[O-])c(O)c([N+](=O)[O-])c2)cc1,inactive
20,COc1cc(C(=O)NCC2(N3CCOCC3)CCCCC2)ccc1OCC(C)C,inactive
21,O=[As](O)(c1ccc(O)cc1)c1ccccc1O,inactive
22,C[As](=O)(O)c1cccc(C(=O)O)c1,inactive
23,O=[N+]([O-])c1cc([N+](=O)[O-])c(Nc2cccnc2)c([N+](=O)[O-])c1,active: 35.5 µM
